Compound potency records, mixed from different reports. Data source: NIAID ChemDB in PubChem.

All rows: tests in culture; species: HIV-1; method: cytopathic effect; read-out: EC50

Blank or dashed fields: not listed here. ECn: concentration that inhibits the pathogen or its effect by n%. Rows are shuffled and stem from different studies.

compound | strain | cell line | value
CO[C@H]1[C@H]2O[Si](C(C)C)(C(C)C)O[Si](C(C)C)(C(C)C)OC[C@@H]2O[C@@H]1c1ccccc1 | IIIB | CEM | >4 µg/mL
Cc1ccc(C)c(CS(=O)(=O)c2cccc[n+]2[O-])c1 | IIIB | CEM | 5.3 µg/mL
O=c1ccn([C@@H]2CS[C@@H](CO)O2)c(=O)[nH]1 |  | MT-4 | >437 µM
O=C1CSC(c2c(F)cccc2Cl)N1Cc1ccco1 | IIIB | MT-4 | 0.576 µM
Cc1cn([C@H]2C[C@H](N=[N+]=[N-])[C@@H](COC(=O)N3C(=O)CCC3=O)O2)c(=O)[nH]c1=O | LAI | MOLT-4 | 0.013 µM
O=C1CSC(c2c(F)cccc2Cl)N1c1cc(F)cc(F)c1 | IIIB | MT-4 | 0.25 µM
CSc1nsc(-c2ccc(OCc3ccccc3)cc2)c1C#N | IIIB | MT-4 | >125 µg/mL
Cc1cccc(N2C(=O)CSC2c2c(Cl)cccc2Cl)c1 | IIIB | MT-4 | 0.08 µM
CCOP(=O)(OCC)C(F)(F)C[C@H]1CO[C@@H](n2cnc3c(N)ncnc32)[C@H]1F |  |  | >100 µM
COc1cc(C[C@H]2CO[C@@H](O[C@@H](CCc3ccccc3)CC(=O)c3ccc(O)cc3)[C@@H]2Cc2ccc(O)c(OC)c2)ccc1O |  |  | 0.39 µg/mL
Nc1nccc2c1nnn2[C@H]1CC[C@@H](CO)O1 |  | MT-4 | >387 µM
CCC1=C(C)C2=NC1=CC1=C(C)C3=C(O)CC(=C4N=C(C=c5[nH]c(c(CC)c5C)=C2)C(C)=C4CCC(=O)O)C3=N1 | LAV | MT-4 | <10 µg/mL
Nc1nc(N)c2ncn([C@@H]3CS[C@@H](CO)O3)c2n1 |  | MT-4 | 22.4 µM
Nc1nccc2c1ncn2[C@@H]1O[C@H](CO)[C@@H](O)[C@H]1O |  | MT-4 | >218 µM
COP(=O)(c1cc(C)cc(CCC#N)c1)c1c(C(N)=O)[nH]c2ccc(Cl)c(F)c12 | IIIB | MT-4 | 0.001 µM
CC1=C(CCC(=O)O)c2cc3nc(cc4[nH]c(cc4C)cc4[nH]c(cc1n2)cc4C)C(C)=C3CCC(=O)O | LAV | MT-4 | <10 µg/mL
Cc1cccc(C)c1OCC(=O)N[C@@H](Cc1ccccc1)[C@H](OC(=O)CCCC(=O)NCC(=O)O)C(=O)N1CSC(C)(C)[C@H]1C(=O)NC(C)(C)C | LAI | MOLT-4 | 3.8 µM
Cc1cn([C@@H]2OC[C@H](CC(F)(F)P(=O)(O)O)[C@@H]2F)c(=O)[nH]c1=O |  |  | >100 µM
COc1cc(Cc2cnc(/N=C3\C(=O)N(CN4CCN(c5cccc(C(F)(F)F)c5)CC4)c4ccc(C)cc43)nc2N)cc(OC)c1OC |  | CEM | >118 µM
Cc1cn([C@H]2C=C[C@@H](CO)O2)c(=O)[nH]c1=O |  | MT-2 | 1.3 µM
Cn1c([S-])nc2nc(-c3ccccc3)c(-c3ccccc3)nc2c1=O.Cn1c([S-])nc2nc(-c3ccccc3)c(-c3ccccc3)nc2c1=O.[O]=[V+2] | IIIB | MT-4 | >61.43 µg/mL
COc1cc(Cc2cnc(/N=C3\C(=O)N(CN4CCCCC4)c4ccc(C)cc43)nc2N)cc(OC)c1OC |  | MT-4 | >124.6 µM
C=Cc1c(C)c2cc3[nH]c(cc4nc(cc5nc(cc1[nH]2)C(C)=C5CCC(=O)OC)C(CCC(=O)OC)=C4C)c(C)c3C=C | LAV | MT-4 | <10 µg/mL
CCc1cccc(N2C(=O)CSC2c2c(F)cccc2Cl)c1 | IIIB | MT-4 | 0.21 µM
Cc1ccc(C)c(CSc2c(Cl)ccc[n+]2[O-])c1 | MN | CEM | 0.4 µg/mL
CCC(C)C(=O)OC/C=C/c1c(OC)cc(OC(=O)C(C)CC)cc1OC |  | C8166 | 2870 µM
O=c1[nH]cnc2c1ncn2[C@H]1CS[C@@H](CO)O1 |  | MT-4 | >410 µM
CC1=C/C(=C\[C@H](C)[C@@]23OC(=O)C[C@]2(C)[C@H]2C[C@]4(O)C[C@@H]5C(=O)OC(C)(C)[C@]5(C)CC[C@@H]4[C@H]2O3)OC1=O |  |  | >100 µg/mL
N#Cc1c(-c2ccccc2)s[nH]c1=S | IIIB | MT-4 | 7.8 µg/mL
Cc1ccccc1NC(=O)[C@H]1N(C(=O)[C@@H](O)[C@H](Cc2ccccc2)NC(=O)COc2c(C)cccc2C)CSC1(C)C | LAI | MOLT-4 | 0.1689 µM
O=C(COc1ccc(Cl)cc1C(=O)c1ccccc1)Nc1ccccc1 | RF | MT-4 | 0.001 µM
O=C(Cc1nc2ccccc2[nH]1)c1ccc(O)cc1O | IIIB | MT-4 | 321 µM
OC[C@H]1O[C@@H](c2ccccc2)[C@H](O)[C@@H]1O | IIIB | CEM | >100 µg/mL
Cc1ccccc1C1SCC(=O)N1Cc1ccco1 | IIIB | MT-4 | 29.08 µM
Cc1cn([C@@H]2CS[C@@H](CO)O2)c(=O)[nH]c1=O |  | MT-4 | >410 µM
Cc1ccccc1CNC(=O)[C@H]1N(C(=O)[C@@H](OC(=O)CCC(=O)NCC(=O)OC[C@H]2O[C@@H](n3cc(C)c(=O)[nH]c3=O)C[C@@H]2N=[N+]=[N-])[C@H](Cc2ccccc2)NC(=O)COc2c(C)cccc2C)CSC1(C)C | LAI | MOLT-4 | 0.0114 µM
Nc1nccc2c1nnn2[C@@H]1O[C@H](CO)[C@@H](O)[C@H]1O |  | MT-4 | >398 µM
Nc1nc(N)c2ncn([C@H]3CS[C@@H](CO)O3)c2n1 |  | MT-4 | 231.1 µM
CCOS(=O)c1nsc(-c2ccc(OCc3ccccc3)cc2)c1C#N | IIIB | MT-4 | >125 µg/mL
COc1cc(Cc2cnc(/N=C3\C(=O)N(CN4CCN(c5ccccn5)CC4)c4ccc(C)cc43)nc2N)cc(OC)c1OC |  | CEM | >121 µM
OC[C@H]1O[C@@H](n2nc3ccnc(Cl)c3n2)[C@H](O)[C@@H]1O |  | MT-4 | >398 µM
O=c1ccn([C@@H]2OC[C@H](CC(F)(F)P(=O)(O)O)[C@@H]2F)c(=O)[nH]1 |  |  | >100 µM
OC[C@H]1O[C@@H](n2nnc3ccnc(Cl)c32)[C@H](O)[C@@H]1O |  | MT-4 | >15 µM
Nc1nc2c(ncn2[C@@H]2OC[C@H](CC(F)(F)P(=O)(O)O)[C@@H]2F)c(=O)[nH]1 |  |  | 66.3 µM
O=C1CSC(c2ccccc2Cl)N1Cc1ccco1 | IIIB | MT-4 | 6.43 µM
CCc1c(C)nc(Cl)c([N+](=O)[O-])c1S(=O)c1cc(C)cc(C)c1 | LAI | CEM + CEM-SS | 3 µM
Nc1nc(Cl)c2ncn([C@H]3C=C[C@@H](CO)C3)c2n1 | IIIB | MT-2 | 0.4 µg/mL
Nc1nccc2c1nnn2[C@H]1C[C@H](O)[C@@H](CO)O1 |  | MT-4 | >396 µM
CC1=C(CCC(=O)O)c2cc3nc(cc4[nH]c(cc5[nH]c(cc1n2)c(C)c5CCC(=O)O)c(CCC(=O)O)c4C)C(CCC(=O)O)=C3C | LAV | MT-4 | <10 µg/mL
C=C1CN(S(=O)(=O)c2ccc(C)cc2)CCCN(Cc2ccccc2)CCCN(S(=O)(=O)c2ccc(C)cc2)C1 | NL4-3 | PBMC | 1.6 µM
Cc1cc(C)cc(Sc2cc(CCCO)[nH]c(=O)c2[N+](=O)[O-])c1 | LAI | CEM + CEM-SS | 0.8 µM
Cc1ccc(C)c(CS(=O)c2ccc(Cl)c[n+]2[O-])c1 | RF | CEM | 10 µg/mL
Cc1cn([C@H]2C[C@H](N=[N+]=[N-])[C@@H](CO)O2)c(=O)[nH]c1=O |  |  | 0.007 µM
Cc1ccc(C)c(C(Cl)S(=O)(=O)c2cc(C)cc[n+]2[O-])c1 | RF | CEM | 1 µg/mL
C=Cc1c(C)c2cc3[nH]c(cc4nc(cc5nc(cc1[nH]2)C(C)=C5CCCO)C(CCCO)=C4C)c(C)c3C=C | LAV | MT-4 | <10 µg/mL
Nc1nc2c(ncn2[C@H]2CC[C@@H](CO)C2)c(=O)[nH]1 | IIIB | MT-2 | >100 µg/mL
CCOP(=O)(OCC)C(F)(F)C[C@H]1CO[C@@H](n2ccc(N)nc2=O)[C@H]1F |  |  | >100 µM
COc1cc(Cc2cnc(/N=C3\C(=O)N(CN4CCN(c5ccccc5)CC4)c4ccc(C)cc43)nc2N)cc(OC)c1OC |  | CEM | >121 µM
N#Cc1c(SSc2nsc(-c3ccccc3)c2C#N)nsc1-c1ccccc1 | IIIB | MT-4 | 13.6 µg/mL
CC1=C(CCC(=O)O)c2cc3nc(cc4[nH]c(cc5[nH]c(cc1n2)c(C)c5C(C)O)c(C)c4C(C)O)C(C)=C3CCC(=O)O | LAV | MT-4 | <10 µg/mL
COc1cc(Cc2cnc(/N=C3\C(=O)N(CN4CCCC4)c4ccc(C)cc43)nc2N)cc(OC)c1OC |  | MT-4 | >124 µM

The last 6 rows once more:

compound | strain | cell line | value
Nc1nc2c(ncn2[C@H]2CC[C@@H](CO)C2)c(=O)[nH]1 | IIIB | MT-2 | >100 µg/mL
CCOP(=O)(OCC)C(F)(F)C[C@H]1CO[C@@H](n2ccc(N)nc2=O)[C@H]1F |  |  | >100 µM
COc1cc(Cc2cnc(/N=C3\C(=O)N(CN4CCN(c5ccccc5)CC4)c4ccc(C)cc43)nc2N)cc(OC)c1OC |  | CEM | >121 µM
N#Cc1c(SSc2nsc(-c3ccccc3)c2C#N)nsc1-c1ccccc1 | IIIB | MT-4 | 13.6 µg/mL
CC1=C(CCC(=O)O)c2cc3nc(cc4[nH]c(cc5[nH]c(cc1n2)c(C)c5C(C)O)c(C)c4C(C)O)C(C)=C3CCC(=O)O | LAV | MT-4 | <10 µg/mL
COc1cc(Cc2cnc(/N=C3\C(=O)N(CN4CCCC4)c4ccc(C)cc43)nc2N)cc(OC)c1OC |  | MT-4 | >124 µM